Data as given in PubChem BioAssay AID624099 (ICCB-Longwood, 2012).
The whole screen tested about 21,000 reagents; below is a part drawn at random. 497 of them (2.4%) count as active. 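Higher z means weaker E2 silencing; only reporter increases were scored, and knock-downs that hurt cell survival may mask genuine repressor factors.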 Reagents against one gene are numbered here.

Test: 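Knock-downs relieving repression by E2 of an HPV18 LCR luciferase reporter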 (primary screen)
System: human C33A cervical carcinoma cells (HPV-negative) stably expressing BPV1 E2 and an HPV18 LCR luciferase reporter
Reagent: siRNA pool against human genes, 40 nM
Timing: 72 h
Detection: 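Per-well luciferase luminescence, z-scored on each plate against the plate mean and SD with control wells left out, then averaged across three replicate plates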
Direction: mean z-score and z-score: higher = stronger reporter signal, weaker E2 silencing
Hit rule: 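Mean z ≥ 2 together with z ≥ 2 in two or more of the three replicates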

Silencing of SF1 resulted in: mean z-score -1.23; z-score, replicate A = -1.18; z-score, replicate B = -1.15; z-score, replicate C = -1.36; inactive. EZHIP showed mean z-score 1.48; z-score, replicate A = 1.15; z-score, replicate B = 1.79; z-score, replicate C = 1.51; inactive. Silencing of RBBP4 resulted in: mean z-score -0.98; z-score, replicate A = -0.89; z-score, replicate B = -0.8; z-score, replicate C = -1.24; inactive. After knock-down of LOC389469 (retired record), the record shows mean z-score 1.52; z-score, replicate A = 1.52; z-score, replicate B = 1.57; z-score, replicate C = 1.48; inactive. After knock-down of PRELID2, the record shows mean z-score -0.74; z-score, replicate A = -0.18; z-score, replicate B = -1.12; z-score, replicate C = -0.92; inactive. For DEFA6 the deposit lists mean z-score -0.21; z-score, replicate A = 0.03; z-score, replicate B = -0.34; z-score, replicate C = -0.31; inactive.

GRM6 gave mean z-score 2.09; z-score, replicate A = 2.2; z-score, replicate B = 1.99; z-score, replicate C = 2.08; active. Against FOXD4L3 #1, the values are mean z-score 0.61; z-score, replicate A = 0.67; z-score, replicate B = 0.56; z-score, replicate C = 0.59; inactive. With knock-down of FOXD4L3 #2, the record shows mean z-score 1.63; z-score, replicate A = 1.51; z-score, replicate B = 1.8; z-score, replicate C = 1.58; inactive. LINC01931 scored mean z-score 0.92; z-score, replicate A = 0.64; z-score, replicate B = 0.82; z-score, replicate C = 1.29; inactive. LMAN2L scored mean z-score 0.69; z-score, replicate A = 0.92; z-score, replicate B = 1.17; z-score, replicate C = -0.01; inactive. Depletion of TMEM229B resulted in: mean z-score -0.25; z-score, replicate A = -0.29; z-score, replicate B = -0.06; z-score, replicate C = -0.4; inactive.

After knock-down of PRKAB1, the record shows mean z-score -0.54; z-score, replicate A = -0.68; z-score, replicate B = -0.3; z-score, replicate C = -0.63; inactive. Against RAB3C the deposit lists mean z-score -0.58; z-score, replicate A = -0.63; z-score, replicate B = -0.44; z-score, replicate C = -0.66; inactive. After knock-down of TET1, the screen gave mean z-score -0.41; z-score, replicate A = 0.05; z-score, replicate B = -0.71; z-score, replicate C = -0.57; inactive.

In a second layout: results already given.
{"gene knocked down":"EZHIP","pool no.":1,"mean z-score":1.48,"z-score, replicate A":1.15,"z-score, replicate B":1.79,"z-score, replicate C":1.51,"Call":"inactive"}
{"gene knocked down":"RBBP4","pool no.":1,"mean z-score":-0.98,"z-score, replicate A":-0.89,"z-score, replicate B":-0.8,"z-score, replicate C":-1.24,"Call":"inactive"}
{"gene knocked down":"LOC389469 (retired record)","pool no.":1,"mean z-score":1.52,"z-score, replicate A":1.52,"z-score, replicate B":1.57,"z-score, replicate C":1.48,"Call":"inactive"}
{"gene knocked down":"PRELID2","pool no.":1,"mean z-score":-0.74,"z-score, replicate A":-0.18,"z-score, replicate B":-1.12,"z-score, replicate C":-0.92,"Call":"inactive"}

Further records:
After knock-down of LOC387762 (retired record), the screen gave mean z-score -0.21; z-score, replicate A = 0.16; z-score, replicate B = -0.35; z-score, replicate C = -0.44; inactive. Knock-down of DNAAF8 gave: mean z-score -0.32; z-score, replicate A = 0.13; z-score, replicate B = -0.61; z-score, replicate C = -0.49; inactive. Against MGST1 the deposit lists mean z-score -0.27; z-score, replicate A = -0.54; z-score, replicate B = -0.02; z-score, replicate C = -0.25; inactive. CTPS2 showed mean z-score -0.79; z-score, replicate A = -0.82; z-score, replicate B = -0.93; z-score, replicate C = -0.62; inactive. LOC388686 (retired record) scored mean z-score -0.17; z-score, replicate A = -0.11; z-score, replicate B = -0.25; z-score, replicate C = -0.16; inactive. MLEC gave mean z-score -0.62; z-score, replicate A = -0.82; z-score, replicate B = -0.54; z-score, replicate C = -0.49; inactive.

Against HYI, the values are mean z-score 1.08; z-score, replicate A = 0.77; z-score, replicate B = 1.05; z-score, replicate C = 1.42; inactive. Knock-down of MTERF2 gave: mean z-score -1.36; z-score, replicate A = -1.34; z-score, replicate B = -1.52; z-score, replicate C = -1.2; inactive. UBR7 showed mean z-score -0.54; z-score, replicate A = -0.74; z-score, replicate B = -1.06; z-score, replicate C = 0.17; inactive. Knock-down of CNN3-DT gave: mean z-score 1.38; z-score, replicate A = 1.2; z-score, replicate B = 1.45; z-score, replicate C = 1.48; inactive. After knock-down of TSLIG1, the screen gave mean z-score -1.84; z-score, replicate A = -1.77; z-score, replicate B = -1.69; z-score, replicate C = -2.07; inactive. For LOC284120 (retired record) the deposit lists mean z-score 0.43; z-score, replicate A = 0.15; z-score, replicate B = 0.44; z-score, replicate C = 0.69; inactive.
